A mixed list of measured activities; the numbers were collected in NIAID ChemDB.

Shared fields: tests in culture; species: HIV-1; method: cytopathic effect / XTT; read-out: fold resistance

Fold resistance has wild type as its base. Lines come from different laboratories, so protocols vary.

compound,strain,changes,cells,value
CC(C)=CCN1Cc2cccc3[nH]c(=S)n(c23)C[C@@H]1C,IIIB(A17(III)),RT-K103N Y181C,CEM + CEM-SS,166
CCc1c(Sc2ccccn2)n(COCc2ccccc2)c(=O)[nH]c1=O,IIIB,RT-Y181C,CEM + CEM-SS,60
Cc1cn([C@H]2C[C@H](N=[N+]=[N-])[C@@H](CO)O2)c(=O)[nH]c1=O,IIIB(CALO-R(II)),RT-V90I T139I P225S,CEM + CEM-SS,1
Nc1nc(NC2CC2)c2ncn([C@H]3C=C[C@@H](CO)C3)c2n1,Site-directed mutant,RT-K65R H221Y,MT-2,5
O=[N+]([O-])c1ccccc1S(=O)(=O)c1ccccc1,IIIB(CALO-R(II)),RT-V90I T139I P225S,CEM + CEM-SS,2.3
Cc1cn([C@H]2C=C[C@@H](CO)O2)c(=O)[nH]c1=O,Site-directed mutant,RT-K65R H221Y,MT-2,2.3
Cc1ccnc2c1NC(=O)c1cccnc1N2C1CC1,Thiazolobenzimidazole-resistant (RT V108I),RT-V108I,CEM + CEM-SS,30
CCc1c(C(=O)c2cc(C)cc(C)c2)n(CC2CC=CC2)c(=O)[nH]c1=O,NL4-3,RT-T139I,CEM + CEM-SS,1
O=C(Nc1ccccc1)C1=COCCS1,IIIB,RT-Y181C,CEM + CEM-SS,8
Cc1cn([C@H]2C[C@H](N=[N+]=[N-])[C@@H](CO)O2)c(=O)[nH]c1=O,NL4-3,RT-K101E,CEM + CEM-SS,1.33
Cc1occc1C(=S)Nc1ccc(Cl)c(/C=N/OC(C)(C)C)c1,NL4-3 (RT M184V),RT-M184V,CEM + CEM-SS,1.25
Cc1ccnc2c1NC(=O)c1cccnc1N2C1CC1,NL4-3,RT-V108I,CEM + CEM-SS,3
O=S1(c2ccccc2)=NC(=S)Nc2ccccc21,IIIB(DPS-R(III)),RT-Y181C,CEM + CEM-SS,>250
C/C=C/CSc1cc(NC(=S)c2ccsc2C)ccc1Cl,UC10-resistant (RT Y181C K101E),RT-Y181C K101E,CEM + CEM-SS,>33.3
Cc1c(Sc2ccccc2)n(COCCO)c(=O)[nH]c1=O,IIIB,RT-V108I,CEM + CEM-SS,>18